{
  "source": "paper doi:10.1101/2022.11.09.515855",
  "biological_target": "T1, Gac (C-terminal domain of GyrA, recombinant) (Borrelia burgdorferi B31) (UniProt O51396)",
  "T1 sequence": "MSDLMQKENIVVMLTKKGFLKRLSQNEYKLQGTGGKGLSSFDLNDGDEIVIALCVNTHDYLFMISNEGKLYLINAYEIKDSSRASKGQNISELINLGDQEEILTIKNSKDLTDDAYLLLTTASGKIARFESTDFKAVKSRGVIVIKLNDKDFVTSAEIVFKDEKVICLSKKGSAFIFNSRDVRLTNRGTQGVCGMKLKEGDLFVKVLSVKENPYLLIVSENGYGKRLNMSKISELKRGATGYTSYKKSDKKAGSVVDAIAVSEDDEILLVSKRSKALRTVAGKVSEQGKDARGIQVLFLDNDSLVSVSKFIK",
  "experiment": "EMSA",
  "details": "10 nM probe, 25 nM Gac; probe letters rebuilt from the primers and the genome",
  "note": "Construct, isoform or probe ends are uncertain for at least one entry.",
  "data": [
    {"sequence": "ATATATGGATCCTCCTTTTTATTTATGAATTATTAGTCCAACAATTTTGTTTTTCAATTTTTTATTTGAAAAAATAATTTTTTCAAATTCTTCAATATCTTGAATAAATATTGAAGAATTTGAAAAATATTGTCTTAATTTGATTTTAAAATCGACATAAGCAAAGCCAAATATGCGGTACCATATAT (double strand) [B31 ospC operator/promoter probe]", "values": [
      {"measurement": "binding result", "value": "binds"}
    ]}
  ]
}
